The labels stand for the following.
B1: TCN-542 (5079_A16) (antibody, V domains shown)
VH: QVQLQESGPGLVKPSQTLSLTCTVSGGSISSGNYYWNWVRQHPGKGLEWIGYIYYRGSTFYNPSLKSRVTISIDTSKNQFSLRLSSVTAADTAVYYCAKDTRSSLDNYQYGMDVWGQGTTVTVSS
VL: QTVVTQEPSLTVSPGGTVTLTCASSTGAVTSSYFPNWFQQKPGQAPRPLIYSTTIRHSWTPARFSGSLLGGKAALTLSGVQPEDEADYYCLLYSGGDPVAFGGGTKLTVL
B2: TCN-557 (5081_A04) (antibody, V domains shown)
VH: QVQLVQSGAEVKKPGASVKVSCKASGHTFTGYYIHWVRQAPGQGLEWMGWINPDSGATSSAQNFQGRVTMTGDTSSSTAYMELSRLSFDDTAVYYCARVLFTSPFDFWGEGTLVTVSS
VL: QAVVTQEPSLAVSPGGTVTLTCGSSTGAVTRGHYPYWFQQKPGQAPRALIYDSAGNRHSWTPARFSGSLLGGKAALTLSGAQPEDEAEYYCLLSYSGVWVFGGGTKLTVL
B3: TCN-551 (5243_D01) (antibody, V domains shown)
VH: EVQLVQSGSEVKKPGESLKISCKGSGYSFSNYWIGWVRHMPGKGLEWMGIIYPGDSDTRYSPSFQGQVTMSADKSSSTVYLQWSSLKASDTAIYYCARRGGHSFGYGSGGDTHSEFDSWGQGTLVTVSS
VL: QSVLTQSPSVSAAPGQKVTISCSGSDSNIGDYFVCWYQHLPGKPPQLLIYENNKRPSGIPDRFSGSKSGTSATLGITGIQTGDEADYYCATWDGSLSAWVFGGGTKLTVL
B4: TCN-560 (5084_P10) (antibody, V domains shown)
VH: EVQLVESGGGLVQPGGSLRLSCAASGFIFRNYWMSWVRQAPGKGLEWVANIKQDGREKYYVDSLRGRVNISRDNAENSLYLHMNSLRVEDTAVYFCARARMVVVTGDGFDVWGHGTMVTVSS
VL: DIQMTQSPSSLSASVGDRVTITCRASQNIKRYFNWYQQKPGKAPKLLIYAASNLENGVPSRFSGSGSGTDFTLTISSLQPEDFATYYCQQSFSKSWTFGQGTNVDIK
B5: TCN-544 (5082_A19) (antibody, V domains shown)
VH: QVQLQESGPGLVKPSETLSLTCTVSRGSIGHYFWSWIRQPPGKGLEWIGYISYSGSTKYNPSLRSRVTISVDTSKNQFSLNLNSVTATDTALYYCAREDYDILTGAGPGMEVWGQGTTVTVSS
VL: QSMLTQPPSASGTPGQRVTISCSGSSSNIGSNTVNWFKHLPGTAPKLLIYRNDLRPSGVPDRFSGSKSGTSASLAISGLQSEDEADYYCATWDDSLNGFYVFGTGTKVTVL
B6: TCN-552 (5249_I23) (antibody, V domains shown)
VH: QVQVVQSGAEVKKPGSSVRVSCQASGGTFMNYAIIWVRRAPGQGLEWMGGIIPVFPTPNYAQMFQGRVTISTDESRSTSFLELTNLRYEDTAVYYCARRIYHGGNSGFDFWGQGTLVTVSS
VL: EIVLTQSPATLSLSPGERATLSCRASQSVGNYLAWYQQKPGQAPRLLIYDSSNRAPGIPARFSGSGSGTDFTLTISSLAPEDFAVYYCQQRSKWPPMYSFGHGTKLEIK
B7: TCN-540 (5060_F05) (antibody, V domains shown)
VH: QVQLVQSGGGVVQPGRSLRLSCAASGFTFSSYAMHWVRQAPGKGLEWVAIISYDGNDQYYTDSVKGRFTISRDSSKVYLQMHRLRPEDTAVYYCAKEFETSGYFHGSFDYWGQGILVTVSS
VL: QSALTQPASVSGSPGQSITISCTGTSSDVGGYNYVSWYQQHPGKAPKLLIYEVTNWPSGVSNRFSGSKSGNTASLTISGLQAEDEADYYCSSYAGSSTWVFGGGTRVTVL
B8: TCN-556 (5089_K12) (antibody, V domains shown)
VH: QVQLVQSGAEVKKPGASVKVSCKASGYTFIGYDMHWVRQAPGQGLEWMGWINAKRGGTNYAQKFQGRVTMTRDTSISTAYMELNSLRSDDTAVYYCARGVGSRTTIFGVLNPEFDYWGQGTLVTVSS
VL: QSALTQPPSASGSPGQSVTISCTGSSSDVGGYDYVSWYQQHPGKAPKLLIYEVTKRPSGVPDRFSGSKSGNTASLTVSGLQAEDEADYYCSSYAGNYNHVFGPGTKVTVL
B9: TCN-546 (5089_L08) (antibody, V domains shown)
VH: QVQLQQWGAGLLKPSETLSLTCGVYGGSLSDYYWSWIRQPPGKGLEWIGEINHSGGTNYNPSLKRRVTISVDTSKKQFSLKMNSVTAADTAVYYCARGTDPDTEVYCRAGNCAAFDFWGQGTLVTVSS
VL: EIVLTQSPGTLSLSPGERATLSCRASHFVIGRAVAWYQQKPGQAPRLLIYGASSRATGIPDRFSGSGSGTDFTLTISRLETEDFAVFYCQHYGSSPRYAFGQGTKLEIK
B10: TCN-548 (5092_P01) (antibody, V domains shown)
VH: QVQLQESGPGLVKPSETLSLTCTVSSGPMSDYYWSWIRQPPGKGLEWIGHVSVSHGGRTKSNPSVMSRVTISVETSKNQFSLKLTSVTAADTAVYYCARLNYYDRSGYHSPDGPSNNWFDPWGQGTLVTVSS
VL: DIVMTQSPDSLAVSLGERATINCKSSQSVLYSSNNKNYLAWYQQKPGQPPKLLIYWASTRESGVPDRISGSGSGADFTLTISSLQAEDVAVYYCQQYFATPRTFGQGTKVEIK
B11: TCN-549 (5092_P04) (antibody, V domains shown)
VH: QVQLVQSGAEVKKPGASVKVSCKASGYTFTGYYMHWVRQAPGQGLEWMGWINPNSGDTNYAQKFQGRVTMTRDTSITTAYMELSSLRSDDTAVYYCARDSPYSSSWSFFDYWGQGPLVTVSS
VL: DIVMTQSPDSLAVSLGERATINCKSSQSVLYSSNNKSHLAWYQQKPGQPPKLLIYWASTRESGVPDRFSGSGSGTDFTLIISSLQAEDVAVYYCQQYYFSPLTFGGGTKVEIK
B12: TCN-545 (5082_I15) (antibody, V domains shown)
VH: QVQLQQWGAGLLKPSETLSLSCAVFGGSFSDYYWTWIRQPPGKGLEWIGEIKHSGRTNYNPSLESRVTISVDTSKNQFSLKLSSVTAADTAIYYCARGTDPDTEGYCRSGSCSAFDFWGQGTLVTVSS
VL: EIVLTQSPGTLSLSPGERATLSCRASHFVNYRSLAWYQQTPGQVPRLLIYGASTRATGIPDRFSGSGSGTDFTLTISRLEPEDFAVYFCQQYGGSPRYTFGQGTRLEIK
B13: TCN-553 (5261_C18) (antibody, V domains shown)
VH: QVQVVQSGTEVKKPGSSVKVSCQTSGGRFMSYAITWVRQAPGQGLEWMGGIVPVFGTANYAQKFQGRVTITTDDSTRTAYMELSSLRSEDTAVYYCGFRYGSGYGFDSWGQGTLVTVSS
VL: EIVLTQSPGTLSLSPGERATLSCRASQSVSSSYLAWYQKKPGQAPRLLIYGASTRATGIPDRFTGSGSGTDFTLSISRLEPEDFAVYYCQHFGTSVFTFGGGTKVEIK
B14: TCN-547 (5092_F11) (antibody, V domains shown)
VH: QVQLQESGPGLVKPSQTLSLTCTVSGDSISSVDHYWSWIRQHPVKGLEWIGFMYYSASTYYNPSLKSRVTISTDTSKNQFSLRLSSVTAADTAVYYCARGTCAGDCSLHYYYYGLDVWGQGRTVTVSS
VL: DIQMTQSPSSLSASVGDRVTITCRASQSISSYLNWYQHKPGKAPKVLMYAVSILQSGVPSRFSGSGSGADFTLTISSLQPEDFATYYCQQSYSSPLTFGGGTKVEIK
B15: TCN-550 (5096_F06) (antibody, V domains shown)
VH: QVQLQESGPGLVKPSETLSLTCTVSGASINSHYWSWIRQPPGKGLEWIGYVYYSGSTTYNPSLKSRVTLSVDTSKNQFSLNLSSVTAADTAFYYCARHPYDVLTGSGDWFDPWGQGTLVTVSS
VL: SYVLTQAPSVSVAPGQTARITCGGNAIGSKKVHWYQHKAGQAPVLVVYDDTDRPSGIPERFSGSNSWSTATLTINRVEAGDEADYYCQVWDFTIDHVVFGGGTKLTVL
B16: TCN-543 (5081_G23) (antibody, V domains shown)
VH: QVHLVQSGAEVRKPGDSVKVSCKTSGYTFSTYPVAWVRQVPGQGLEWMGWISTYNGNTNFAQNFQGRVTLTTDTTTNTAYMEVRSLKFDDTAVYYCARVEGSYRDFWNNQNRFDPWGQGTLVTVSS
VL: SYVLTQPPSVSVAPGQTARISCGGSNIGGKSVHWYQQKPGQAPVLVVYDDSGRPSGIPERFSGSNSGDTATLTISRVEAGDEADYFCQVWDNFGGVFGTGTKVTVL

This experiment has as its target Hemagglutinin of influenza A/Wisconsin/67/05 (H3N2), on inactivated whole virions (Influenza A virus A/Wisconsin/67/2005 …). The experiment can be described thus: ELISA, B cell culture supernatant on inactivated whole virions. For orientation: An ELISA detects its analyte on a solid surface through an enzyme-linked reagent.
Molecule B1 displayed an OD450 of 3.13 OD450.

B2 had an OD450 of 0.07 OD450.

The molecule B3 yielded an OD450 of 0.07 OD450.

In the case of B4, the OD450 was found to be 0.07 OD450.

As for B5, the OD450 turned out to be 2.71 OD450.

For the molecule B6, the OD450 worked out at 0.06 OD450.

In the case of B7, the OD450 is 3.65 OD450.

B8 returned an OD450 of 0.06 OD450.

The molecule B9 came in with an OD450 of 3.69 OD450.

The molecule B10 gave an OD450 of 3.62 OD450.

B11 had an OD450 of 3.58 OD450.

In the case of B12, the OD450 came to 0.47 OD450.

B13 registered an OD450 of 0.07 OD450.

As to B14, the OD450 came out at 3.68 OD450.

Molecule B15 registered an OD450 of 3.65 OD450.

On to B16, for which the OD450 came out at 0.07 OD450.

These data come from patent US20120207760A1, “Compositions and Methods for the Therapy and Diagnosis of Influenza” (THERACLONE SCIENCES, published 2012).
